Values of other authors, collected in patent US5965088A, “Method for providing rapid disinfection of contact lenses” (priority 1997, dated 1999).

Conditions: cited from earlier work

Q: For `[H]/N=C(\N/C(=N/[H])NCCCCCCNC(=N)NC(=N)Nc1ccc(Cl)cc1)Nc1ccc(Cl)cc1` [chlorhexidine], which “binding to soft lens material vs benzalkonium chloride” value (clean lenses) is on record?
A: The value was “seven times less”.

Q: And the “effect of proteinaceous oily tear-film deposits on amount absorbed vs clean lenses” value (lenses with deposits)?
A: Its value is “double”.
